In PubChem BioAssay AID720542 (National Center for Advancing Translational Sciences (NCATS), 2013) one finds activity change, negative = inhibition data, which are given here for 22 molecules.

The structures appear in SMILES notation. This is a selection; strong and weak results do not stand in their true shares. Some structures show a salt or complex split into parts, the way the source records it. The source made the active and inactive calls. Calls come from the whole dose curve; as a rule, active = well fitted inhibition curve with a large enough effect; inconclusive = small, poorly fitted or top-dose-only effect; inactive = no such curve, though single readings can be large or run the other way.

The test deals with Plasmodium falciparum AMA1 (3D7) - RON2 peptide interaction. Description: qHTS for Inhibitors of AMA1-RON; Towards Development of Antimalarial Drug Lead: Primary Screen.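 Note: 0% = vehicle wells and -100% = peptide control; nearly all actives have a fitted effect of over 45% in size.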 The settings on record: AlphaScreen AMA1-biotinylated RON2 peptide binding; at 58.2 µM (top of the series) unless noted. (Quantitative high-throughput screening tests each substance at several concentrations.)
For `O=C(OC1CN2CCC1CC2)c1ccc([N+](=O)[O-])cc1` (configuration not stated), the activity change, negative = inhibition was inactive: -7.43%.

With `O=C(NCC1(N2CCCCC2)CCCCC1)c1cncc(Br)c1`, the activity change, negative = inhibition was inactive: 0.847%.

In the case of `COc1ccc2c(c1O)-c1c(O)c(OC)cc3c1[C@H](C2)[N+](C)(C)CC3.O=[N+]([O-])c1cc([N+](=O)[O-])c([O-])c([N+](=O)[O-])c1[O-]`, the activity change, negative = inhibition was inactive: -15.9%.

For the molecule `CN1CCC(Nc2cccc(F)c2)CC1`, the activity change, negative = inhibition was inactive: 8.49%.

With `COc1ccc(C(c2nnnn2C2CCCC2)N2CCC(n3c(=O)[nH]c4ccccc43)CC2)cc1` (configuration not stated), the activity change, negative = inhibition was inactive: -19.3%.

As to `Cc1ccc(C(=O)NCC2(N(C)C)CCCCC2)o1`, the activity change, negative = inhibition was inactive: 0%.

For the molecule `CCCOc1ccc(C(=O)NCC2(N(C)C)CCCCC2)cc1OC`, the activity change, negative = inhibition was inactive: -2.3%.

Regarding `CC(C)(C)n1nnnc1C(c1ccccc1OC(F)(F)F)N1CCC(n2c(=O)[nH]c3ccccc32)CC1` (configuration not stated), the activity change, negative = inhibition was inactive: -0.181%.

In the case of `O=C(NCC1(N2CCCCC2)CCCCC1)c1ccc(OC(F)F)cc1`, the activity change, negative = inhibition is inactive: 11%.

As for `CCN1CCC(Nc2ccc(Cl)cc2)CC1`, the activity change, negative = inhibition is inactive: -8.9%.

Regarding `N#CC1(Nc2ccccc2)CCN(CCc2ccccc2)CC1`, the activity change, negative = inhibition was inactive: 14.8%.

For `O=c1[nH]c2ccccc2n1C1CCN(C(c2ccccc2OC(F)(F)F)c2nnnn2C2CCCC2)CC1` (configuration not stated), the activity change, negative = inhibition was inactive: 15.5%.

Regarding `O=C(NCC1(N2CCCCC2)CCCCC1)c1cccc([N+](=O)[O-])c1`, the activity change, negative = inhibition is inactive: 4.03%.

Regarding `CSc1ccc(C(=O)NCC2(N3CCOCC3)CCCCC2)cc1`, the activity change, negative = inhibition is inactive: -10.9%.

`O=[N+]([O-])c1cc([N+](=O)[O-])c(NCC2CCS(=O)(=O)C2)c([N+](=O)[O-])c1` (configuration not stated): the activity change, negative = inhibition was inactive: 9.84%.

For `O=C(NCC1(N2CCCCC2)CCCCC1)c1cccc(C(F)(F)F)c1`, the activity change, negative = inhibition was inactive: 5.85%.

Take `COc1cc(C(=O)NCC2(N3CCCCC3)CCCCC2)ccc1OC(F)F`: the activity change, negative = inhibition was inactive: 17.6%.

`O=C(NCC1(N2CCOCC2)CCCCC1)c1cc(=O)[nH]c2ccccc12`: the activity change, negative = inhibition was inactive: -0.527%.

As to `CCCCn1nnnc1C(c1cccc2ccccc12)N1CCC(n2c(=O)[nH]c3ccccc32)CC1` (configuration not stated), the activity change, negative = inhibition was inactive: -20.2%.

Take `CN1CCN(CCOC(=O)C(O)(c2ccccc2)c2ccccc2)CC1`: the activity change, negative = inhibition is inactive: -1.58%.

Turning to `COc1ccc(NC2CCN(C(=O)OC(C)(C)C)CC2)cc1`, the activity change, negative = inhibition is inactive: -14.5%.

Regarding `CC(C)c1ccc(C(=O)NCC2(N3CCOCC3)CCCCC2)cc1`, the activity change, negative = inhibition is inactive: -1.69%.
